We go through 1 compound from patent US5744470A, “Method for treating insomnia” (Eli Lilly and Company, priority 1997, dated 1998).

The assay concerns 5-HT-2 receptor.

With `Cc1cc2c(s1)Nc1ccccc1N=C2N1CCN(C)CC1` [olanzapine, 2-methyl-4-(4-methyl-1-piperazinyl)-10H-thieno[2,3-b][1,5]benzodiazepine], the “activity at the 5-HT-2 receptor” value was “active”.
